Measured values published in PMC7954794, “Protein context shapes the specificity of SH3 domain-mediated interactions in vivo” (Nature Communications, 2021).
The amount applied is not stated for every result.

Assays:
Type in all cases: cell-based, Saccharomyces cerevisiae
Design in all cases: key: 0: SH3-independent; 1: SH3-dependent PPIs; 2: SH3-inhibited PPIs
[1] = system: ABP1; experiment: DHFR-PCA on solid medium, bait ABP1 (Fig. 1B); conditions: bait ABP1, label = prey
Description: (§1) Supplement 41467_2021_21873_MOESM8_ESM.xlsx, sheet "Fig1B" | column: medsize; medrep; Ratio; Score

[2] = system: BEM1-2; experiment: DHFR-PCA on solid medium, bait BEM1-2 (Fig. 1B); conditions: bait BEM1-2, label = prey
Description: as §1

[3] = system: BEM1-1; experiment: DHFR-PCA on solid medium, bait BEM1-1 (Fig. 1B); conditions: bait BEM1-1, label = prey
Description: as §1

| Substance | Score [1] | Score [2] | Score [3] |
| --- | --- | --- | --- |
| YAL005C | 0 | 0 | 0 |
| YBL017C | 2 | – | – |
| YBR234C | 0 | 0 | 0 |
| YCR088W (PWATAEYDYDAAEDNELTFVENDKIINIEFVDDDWWLGELEKDGSKGLFPSNYVSLGN) | 0 | 0 | 1 |
| YDL229W | 0 | 0 | 0 |
| YDR170C | 2 | – | – |
| YDR265W | – | – | 2 |
| YDR388W (ETVTALYDYQAQAAGDLSFPAGAVIEIVQRTPDVNEWWTGRYNGQQGVFPGNYVQLNK) | 0 | – | – |
| YER166W | 0 | – | – |
| YFR004W | 2 | – | – |
| YFR024C-A (PKAVALYSFAGEESGDLPFRKGDVITILKKSDSQNDWWTGRVNGREGIFPANYVELV) | 0 | – | – |
| YGL206C | 0 | 2 | – |
| YHR016C (SATPTAVALYNFAGEQPGDLAFKKGDVITILKKSDSQNDWWTGRTNGKEGIFPANYVRVS) | 0 | – | – |
| YIL062C | 0 | – | – |
| YJL210W | – | – | 2 |
| YLR370C | 0 | – | – |
| YMR026C | – | – | 2 |
| YMR109W (PMFEAAYDFPGSGSPSELPLKKGDVIYITREEPSGWSLGKLLDGSKEGWVPTAYMKPHS) | 0 | 1 | 1 |
| YNL138W | 0 | – | – |
| YOR181W | 0 | – | – |
| YPR154W (EYVEALYQFDPQQDGDLGLKPGDKVQLLEKLSPEWYKGSCNGRTGIFPANYVKPAF) | 0 | – | – |
| YPR184W | 0 | – | – |
